Pooled drug test results. Numbers come from NIAID ChemDB, via PubChem.

Shared fields: tests in culture; species: Mycobacterium tuberculosis

MIC bound: limit read from a one-dose screen.

smiles,read by,read-out,tested at,strain or isolate,result
O=C(O)c1cn(-c2ccc([N+](=O)[O-])cc2F)c2cc(N3CCOCC3)c(F)cc2c1=O,BACTEC,inhibition,6.25 µg/mL,H37Rv,49%
NNC(=O)c1ccncc1,,MIC,,MUN (VM-R),0.1 µg/mL
Cc1ccc(O)c(C(=O)Nc2ccc(C#N)cc2)c1,,MIC,,CNCTC MY331/88,1000 µM
Nc1ccc(-c2nnc(SCc3ccc([N+](=O)[O-])cc3)n2-c2ccccc2)cc1,,inhibition,6.25 µg/mL,H37Rv,<50%
Cc1ccc(C(=O)Nc2cccc([N+](=O)[O-])c2)c(O)c1,,MIC,,CNCTC MY331/88,4 µM
CC1CC/C(=N/O)CCCCC(=O)O1,BACTEC,MIC,,H37Rv,≥12.5 µg/mL
N#Cc1ccn2c(-c3ccccc3)c(-c3ccccc3)c(C(O)c3ccccc3)c2c1,,EC50,,H37Rv,<6.25 µg/mL
O=C(Nc1cccc(OC(F)F)c1)NC12CCC3CC(CC1C3)C2,,MIC,,H37Rv,0.8 µg/mL
O=[N+]([O-])c1ccc(Sc2c(Cl)cccc2Cl)c2ncccc12,,MIC,,H37Rv,200 µg/mL
Cc1ccc(/C=C(\C#N)n2nnc3ccccc32)cc1,,inhibition,12.5 µg/mL,,55%
O=C(O)c1cn(-c2ccc([N+](=O)[O-])cc2F)c2cc(N3CCN(Cc4ccc5cccc(O)c5n4)CC3)c(F)cc2c1=O,BACTEC,inhibition,6.25 µg/mL,H37Rv,47%
CC1COc2c(N3CCN(C)CC3)c(F)cc3c(=O)c(C(=O)O)cn1c23,,MIC50,,100 isolates,2 µg/mL
N#Cc1ccn2c(-c3ccccc3)c(-c3ccccc3)c(C(O)c3ccc(Cl)cc3)c2c1,,EC50,,H37Rv,<6.25 µg/mL
CO[C@H]1/C=C/O[C@@]2(C)Oc3c(C)c(O)c4c(O)c(c(/C=N/N5CCN(C)CC5)c(O)c4c3C2=O)NC(=O)/C(C)=C\C=C\[C@H](C)[C@H](O)[C@@H](C)[C@@H](O)[C@@H](C)[C@H](OC(C)=O)[C@@H]1C,resazurin,MIC,,H37Rv,15 µg/mL
CC[C@H]1OC(=O)[C@H](C)[C@@H](O[C@H]2C[C@@](C)(OC)[C@@H](O)[C@H](C)O2)[C@H](C)[C@@H](O[C@@H]2O[C@H](C)C[C@H](N(C)C)[C@H]2O)[C@](C)(OC)C[C@@H](C)C(=O)[C@H](C)[C@@H](O)[C@]1(C)O,,MIC,,H37Rv,4–16 µg/mL
Nc1ccc(-c2nnc(SCc3ccc(Cl)cc3Cl)n2C2CCCCC2)cc1,,inhibition,6.25 µg/mL,H37Rv,50–59%
O=[N+]([O-])c1ccc(S(=O)(=O)c2cccc(Cl)c2Cl)c2ncccc12,,MIC,,H37Rv,>200 µg/mL
CC(=O)c1c(C)[nH]c(C(=O)N/N=C/c2ccc(N(C)C)cc2)c1C,resazurin,inhibition,6.25 µg/mL,H37Rv,18%
Cc1ccc(Oc2ccc([N+](=O)[O-])c3cccnc23)c(C)c1,,MIC,,H37Rv,100 µg/mL
N#Cc1ccn2c(-c3ccccc3)c(-c3ccccc3)c(CO)c2c1,,EC50,,H37Rv,<6.25 µg/mL
O=[N+]([O-])c1ccccc1Sc1ccc([N+](=O)[O-])c2cccnc12,,MIC,,H37Rv,200 µg/mL
Cc1[nH]nc(-c2cccnc2)c1N=NN(C)C,resazurin,inhibition,6.26 µg/mL,H37Rv,100%
CC(=O)NC[C@H]1CN(c2ccc(-c3ccc(CNCc4cn[nH]n4)cc3)c(F)c2)C(=O)O1,low oxygen,EC90,,,0.31 µg/mL
O=[N+]([O-])c1ccc(S(=O)(=O)c2ccc3ccccc3c2)c2ncccc12,,MIC,,H37Rv,40 µg/mL
O=C(O)C1CC(C(=O)O)SS1,BACTEC,inhibition,12.5 µg/mL,H37Rv,-9%
Cc1ccc(-n2c(SCc3ccccc3)nnc2-c2ccc(N=Cc3ccc(Cl)cc3)cc2)cc1,,inhibition,6.25 µg/mL,H37Rv,<50%
CN[C@@H]1[C@H](O[C@H]2[C@H](O[C@H]3[C@H](O)[C@@H](O)[C@H](N=C(N)N)[C@@H](O)[C@@H]3N=C(N)N)O[C@@H](C)[C@]2(O)C=O)O[C@@H](CO)[C@H](O)[C@H]1O,,MIC,,2230,>10 µg/mL
CC1C(O)CC23COC(=O)C2=CCCC3C1(C)CCC1COC(=O)C1,BACTEC,inhibition,12.5 µg/mL,H37Rv,27%
N#C/C(=C\c1ccccc1)n1nnc2ccccc21,,EC50,,,2 µg/mL
Cc1cccc(N=Nc2c(O)c3c(ccc4ccccc43)oc2=O)c1C,resazurin,MIC,,H37Rv,<6.25 µg/mL
CC(=O)Oc1c(C)c2c(O)c3c1C1=C(OCOC1=C(C)C3=O)/C(C)=C/[C@@](C)(O)[C@H](O)[C@@H](C)[C@@H](O)[C@H](C(=O)O)[C@H](O)[C@H](C)C(O)[C@H](C)/C=C\C=C(/C)C(=O)N2,,MIC,,ETA-R,1.6 µg/mL
O=C(Nc1cccc(Oc2ccccc2)c1)NC12CC3CC(CC(C3)C1)C2,,MIC,,H37Rv,3.4 µg/mL
O=C1N(c2nncs2)CCN1[N+](=O)[O-],BACTEC,MIC bound,,H37Rv,≤12.5 µg/mL
Cc1ccc(-n2c(SCc3ccccc3)nnc2-c2ccc(N)cc2)cc1,,EC50,,H37Rv,<6.25 µg/mL
O=c1c2cc(Cl)ccc2nc2n1OCC2,BACTEC,MIC bound,,H37Rv,>12.5 µg/mL
CCCCc1ccc(Nc2c(C#N)[n+]([O-])c3cc(Cl)ccc3[n+]2[O-])cc1,,inhibition,12.5 µg/mL,H37Rv,99%
N#C/C(=C\c1ccc(Br)cc1)n1nnc2ccccc21,,MIC,,,12.5 µg/mL
O=C(Nc1cccc(C(F)(F)F)c1)NC12CCC3CC(CC1C3)C2,,MIC,,H37Rv,0.8 µg/mL
Nc1ccc(-n2cc(C(=O)O)c(=O)c3ccc(N4CCOCC4)cc32)c(F)c1,BACTEC,inhibition,6.25 µg/mL,H37Rv,0%
CC(O)(c1ccccc1)c1c(-c2ccccc2)c(-c2ccccc2)n2ccc(C#N)cc12,,EC50,,H37Rv,<6.25 µg/mL
CO[C@H]1/C=C/O[C@@]2(C)Oc3c(C)c(O)c4c(O)c(c(/C=N/N5CCN(C6CCCC6)CC5)c(O)c4c3C2=O)NC(=O)/C(C)=C\C=C\[C@H](C)[C@H](O)[C@@H](C)[C@@H](O)[C@@H](C)[C@H](OC(C)=O)[C@@H]1C,,MIC,,H37Rv (p-aminosalicylate-resistant),1.25 µg/mL
O=C(Nc1ccc(Cl)c(Cl)c1)c1cc(F)ccc1O,,MIC,,CNCTC MY331/88,4 µM
CN[C@@H]1[C@H](O[C@H]2[C@H](O[C@H]3[C@H](O)[C@@H](O)[C@H](N=C(N)N)[C@@H](O)[C@@H]3N=C(N)N)O[C@@H](C)[C@]2(O)C=O)O[C@@H](CO)[C@H](O)[C@H]1O,resazurin,MIC,,H37Rv,250 µg/mL
O=c1[nH]c2c(Cl)c(Cl)ccc2c(O)c1N=Nc1ccc([N+](=O)[O-])cc1,resazurin,inhibition,6.25 µg/mL,H37Rv,89%
O=C(Nc1cccc(Cl)c1)c1cc(Br)ccc1O,,MIC,,CNCTC MY331/88,8 µM
CO/N=C(/C(=O)N[C@@H]1C(=O)N2C(C(=O)[O-])=C(C[n+]3cccc4c3CCC4)CS[C@H]12)c1csc(N)n1,BACTEC,EC50,,8 strains,<100 µg/mL
COC(=O)C1=C(NC(=O)Nc2ccccc2)OC(C)(C)C1c1ccc(Cl)cc1,BACTEC,inhibition,12.5 µg/mL,H37Rv,-19%
O=c1[nH]c2c([N+](=O)[O-])cccc2c(O)c1N=Nc1ccc(Cl)c(Cl)c1,resazurin,MIC,,H37Rv,<6.25 µg/mL
O=NNc1ccc([N+](=O)[O-])cn1,BACTEC,MIC bound,,H37Rv,>12.5 µg/mL
CC(=O)OCC1=C(C(=O)O)N2C(=O)[C@@H](NC(=O)CSc3ccncc3)[C@H]2SC1,BACTEC,EC50,,8 strains,<100 µg/mL
Cc1ccc(/C=C(\C#N)n2nc3ccccc3n2)cc1,,inhibition,12.5 µg/mL,,31%
NC(=O)[C@H]1C[C@H](O)CN1C(=O)c1cnc2ccccc2c1,BACTEC,MIC bound,,H37Rv,>12.5 µg/mL
O=[N+]([O-])c1ccc(S(=O)(=O)c2nc3ccccc3s2)c2ncccc12,,MIC,,H37Rv,100 µg/mL
C[n+]1cc2c3c(ccc2c2ccc4cc5c(cc4c21)OCO5)OCO3.O=[N+]([O-])[O-],BACTEC,MIC,,H37Rv,16 µg/mL
Cc1ccc(C)c(Oc2ccc([N+](=O)[O-])c3cccnc23)c1,,MIC,,H37Rv,1 µg/mL
CC(=O)c1c(-c2ccccc2)c(-c2ccccc2)n2ccc(C#N)cc12,,EC50,,H37Rv,>6.25 µg/mL
CN1C2CCC1CC(OC(=O)C1CCC(C(=O)OC3CC4CCC(C3)N4C)(c3ccccc3)c3ccccc31)C2,resazurin,MIC bound,,H37Rv,>6.25 µg/mL
Cc1c(-c2ccccc2)c(-c2ccccc2)n2ccc(C#N)cc12,,EC50,,H37Rv,>6.25 µg/mL
Cc1ccc(Oc2ccc([N+](=O)[O-])c3cccnc23)cc1C,,MIC,,H37Rv,1 µg/mL
N#C/C(=C\c1ccc(C(F)(F)F)cc1)n1nnc2ccccc21,,inhibition,12.5 µg/mL,,82%
CCCCC(=O)N/N=C/c1cc2c(cc1[N+](=O)[O-])OCO2.NN1CCOCC1,BACTEC,MIC,,H37Rv,≥12.5 µg/mL
CCOC(=O)c1ccc(NC(=O)c2ccc(OC)cc2O)cc1,,MIC,,CNCTC MY331/88,4 µM
CCCCC(=O)Nc1ccc(S(=O)(=O)O)c(N=NC2C(=O)N(c3ccccc3)N=C2C)c1,BACTEC,MIC,,H37Rv,≥12.8 µg/mL
Cn1c(SCc2ccc(Cl)cc2Cl)nnc1-c1ccc(N=Cc2ccc(O)cc2)cc1,,inhibition,6.25 µg/mL,H37Rv,<50%
N#CC1CC2OC1CC(=O)C2(O)c1occc(=O)c1O,BACTEC,MIC bound,,H37Rv,>12.5 µg/mL
CCn1cc(C(=O)O)c(=O)c2cc(F)c(N3CCNCC3)cc21,,MIC50,,100 isolates,16 µg/mL
O=C(Nc1ccc(Cl)cc1)c1ccccc1O,,MIC,,CNCTC MY331/88,31 µM
Cc1ccc([N+](=O)[O-])cc1NC(=O)NNC(=O)CNC(=O)c1ccc(Cl)cc1,BACTEC,inhibition,12.5 µg/mL,H37Rv,31%
N#C/C(=C/c1ccc(Cl)cc1)n1nc2ccccc2n1,,inhibition,12.5 µg/mL,,12%
O=C(O)c1cn(-c2ccc(F)cc2)c2cc(N3CCNCC3)c(F)cc2c1=O,BACTEC,EC50,,12 strains,<100 µg/mL
Cc1ccc(-n2c(SCc3ccc(Cl)cc3Cl)nnc2-c2ccc(N)cc2)cc1,,EC50,,H37Rv,>6.25 µg/mL
CO/N=C(\C(=O)N[C@@H]1C(=O)N2C(C(=O)O)=C(CSc3nnnn3CCNS(=O)(=O)O)CS[C@H]12)c1csc(N)n1,BACTEC,EC50,,8 strains,>100 µg/mL
O=C(O)c1nc(-c2ccc(S(=O)(=O)O)cc2)[nH]c1C(=O)O,resazurin,inhibition,6.25 µg/mL,H37Rv,3%
O=[N+]([O-])c1ccc(S(=O)(=O)c2cc(Cl)ccc2Cl)c2ncccc12,,MIC,,H37Rv,>200 µg/mL
O=[N+]([O-])c1cc(C(F)(F)F)cc2c1SC1=Nc3ccccc3CN12,,inhibition,6.25 µg/mL,H37Rv,-1%
O=C(O)c1cn(-c2ccc([N+](=O)[O-])cc2)c2cc(N3CCCCC3)c(F)cc2c1=O,BACTEC,inhibition,6.25 µg/mL,H37Rv,6%
O=C(O)C1OC(Oc2ccc3oc4ccccc4c(=O)c3c2)C(O)C(O)C1O,BACTEC,MIC,,H37Rv,12.5 µg/mL
CC(=O)c1c(C)[nH]c(C(=O)N/N=C/c2cccc([N+](=O)[O-])c2)c1C,resazurin,MIC,,H37Rv,<6.25 µg/mL
O=C1OCC(O)C([C@@H]2OC(=O)c3cc(O)c(O)c(O)c3-c3c(O)c(O)c(O)c4c3C(=O)OC2C(O)C4)OC(=O)c2cc(O)c(O)c(O)c2-c2c(O)c(O)c3oc(=O)c4c(ccc5oc(=O)c2c3c54)-c2cc1c(O)c(O)c2O,BACTEC,inhibition,12.5 µg/mL,H37Rv,0%
Nc1ccc(-c2nnc(SCc3ccc(Cl)cc3Cl)n2-c2ccccc2)cc1,,inhibition,6.25 µg/mL,H37Rv,50–59%

Repeating the final 10 entries:

smiles,read by,read-out,tested at,strain or isolate,result
Cc1ccc(-n2c(SCc3ccc(Cl)cc3Cl)nnc2-c2ccc(N)cc2)cc1,,EC50,,H37Rv,>6.25 µg/mL
CO/N=C(\C(=O)N[C@@H]1C(=O)N2C(C(=O)O)=C(CSc3nnnn3CCNS(=O)(=O)O)CS[C@H]12)c1csc(N)n1,BACTEC,EC50,,8 strains,>100 µg/mL
O=C(O)c1nc(-c2ccc(S(=O)(=O)O)cc2)[nH]c1C(=O)O,resazurin,inhibition,6.25 µg/mL,H37Rv,3%
O=[N+]([O-])c1ccc(S(=O)(=O)c2cc(Cl)ccc2Cl)c2ncccc12,,MIC,,H37Rv,>200 µg/mL
O=[N+]([O-])c1cc(C(F)(F)F)cc2c1SC1=Nc3ccccc3CN12,,inhibition,6.25 µg/mL,H37Rv,-1%
O=C(O)c1cn(-c2ccc([N+](=O)[O-])cc2)c2cc(N3CCCCC3)c(F)cc2c1=O,BACTEC,inhibition,6.25 µg/mL,H37Rv,6%
O=C(O)C1OC(Oc2ccc3oc4ccccc4c(=O)c3c2)C(O)C(O)C1O,BACTEC,MIC,,H37Rv,12.5 µg/mL
CC(=O)c1c(C)[nH]c(C(=O)N/N=C/c2cccc([N+](=O)[O-])c2)c1C,resazurin,MIC,,H37Rv,<6.25 µg/mL
O=C1OCC(O)C([C@@H]2OC(=O)c3cc(O)c(O)c(O)c3-c3c(O)c(O)c(O)c4c3C(=O)OC2C(O)C4)OC(=O)c2cc(O)c(O)c(O)c2-c2c(O)c(O)c3oc(=O)c4c(ccc5oc(=O)c2c3c54)-c2cc1c(O)c(O)c2O,BACTEC,inhibition,12.5 µg/mL,H37Rv,0%
Nc1ccc(-c2nnc(SCc3ccc(Cl)cc3Cl)n2-c2ccccc2)cc1,,inhibition,6.25 µg/mL,H37Rv,50–59%

MIC50, MIC90 and the like: level of inhibition, or share of isolates inhibited. Inhibition is in % at the dose shown (toxicity tests: loss of growth or viability). ECn: concentration that inhibits the pathogen or its effect by n%. Blank or dashed fields: not listed here. Two numbers with a dash give a range or band. Neighbouring rows are from separate reports.